{
  "source": "patent US20120100555A1",
  "about": "“Synthesis And Use Of Fluorophore-Tagged Antimalarials” (priority 2009, published 2012)",
  "test_system": "P. falciparum-infected red blood cells",
  "assay": "Confocal microscopy, cellular localization of CM-CQ",
  "format": "cell-based, Plasmodium falciparum",
  "data": [
    {"compound": "CCN(CCCCNc1ccnc2cc(Cl)ccc12)CC(=O)NCCNC(=O)Cc1cc(=O)oc2cc(N(C)C)ccc12", "note": "[CM-CQ]", "values": [
      {"measurement": "accumulation / localization within the parasite", "setting": "30 nM", "value": "No accumulation"},
      {"measurement": "accumulation / localization within the parasite", "setting": "300 nM", "value": "localizes in the hemazoin-containing food vacuole"},
      {"measurement": "accumulation / localization within the parasite", "setting": "concentrations exceeding 3 μM", "value": "non-specific"}
    ]}
  ]
}
